Compound potency records, mixed from different reports. Data source: NIAID ChemDB in PubChem.

Shared fields: tests in culture; species: Mycobacterium tuberculosis

MIC50, MIC90 and the like: level of inhibition, or share of isolates inhibited. ECn is the concentration giving n% inhibition of infection, replication or growth. Rows are shuffled and stem from different studies. Blank or dashed fields: not listed here. MIC bound: limit read from a one-dose screen. Percent inhibition refers to the dose given; in toxicity tests it is the harm to the cells.

compound,mutations,dose,read-out,strain or isolate,method,value
CC1OC(=O)c2c(N)cccc21,,,MIC,H37Rv,,1000 µg/mL
OC[C@H]1O[C@@H](CSc2ccccc2)[C@@H](O)[C@@H]1O,,,MIC,H37Ra,,>128 µg/mL
CO[C@H]1/C=C/O[C@@]2(C)Oc3c(C)c(O)c4c(O)c(c(/C=N/N5CCN(C)CC5)c(O)c4c3C2=O)NC(=O)/C(C)=C\C=C\[C@H](C)[C@H](O)[C@@H](C)[C@@H](O)[C@@H](C)[C@H](OC(C)=O)[C@@H]1C,,,MIC,H37Rv,resazurin,0.003 µg/mL
C=C1CC[C@H](Br)[C@@]2(C)CC[C@@H](Br)[C@@]3(C)CC[C@H](OC(=O)c4ccc(O)c(c4)C[C@H]12)C(C)(C)O3,,,MIC,,,48 µM
CCCCn1c(C)c2c(=O)[nH]n(C)c(=O)c2c1C,,,EC50,H37Rv,,>12.5 µg/mL
O=C(Cc1ccccc1)N[C@@H]1C(=O)N2C(C(=O)O)=C(CN3CCN(c4cc5c(cc4F)c(=O)c(C(=O)O)cn5C4CC4)CC3)CS[C@H]12,,,MIC,H37Rv,,62.3 µM
O=[N+]([O-])c1ccc(N/N=C/c2cccc([N+](=O)[O-])c2)nc1,,,MIC bound,H37Rv,BACTEC,>12.5 µg/mL
c1cnc2c(c1)ccc1cccnc12,,,MIC90,H37Rv,resazurin / absorbance,11.8 µM
O=S(=O)(C[C@@H]1N[C@H](CO)[C@@H](O)[C@@H]1O)c1ccccc1,,,EC50,H37Ra,BACTEC,>12.5 µg/mL
NC(=O)c1cnccn1,,,MIC,H37Rv,agar,50 µg/mL
CCCCCCCCOCCCCOP(=O)(O)C[C@@H]1O[C@H](CO)[C@@H](O)[C@@H]1O,,,MIC,H37Rv,,>3.13 µg/mL
CCOC(=O)Cn1cc(Cn2c3ccccc3c3ccccc32)nn1,,,MIC,H37Rv,agar,12.5 µg/mL
C=C(C)[C@@H]1CCC(C)(O)[C@H](Br)CC[C@@]2(C)[C@H](Cc3cc(ccc3O)C(=O)O1)C(C)=CC[C@@H]2Br,,,MIC,,,>50 µM
Cc1cc(=O)oc2cc(OC(=O)CNC3N=C(c4ccc(F)cc4)C=C(c4cccc(Br)c4)S3)c([N+](=O)[O-])cc12,,,MIC99,H37Rv,broth dilution,500 µg/mL
CN1N=C(c2ccncc2)OC1c1cccc(Cl)c1,,,MIC,6 PI,,>20 µg/mL
CCCCCCCCCCCCOCCCCOP(=O)(O)C[C@@H]1O[C@H](CO)[C@@H](O)[C@@H]1O,,,MIC,H37Rv,,>3.13 µg/mL
Cc1cc(=O)oc2cc(OC(=O)CNC3N=C(c4ccc(F)cc4)C=C(c4ccc(F)cc4)S3)c([N+](=O)[O-])cc12,,,MIC97,H37Rv,broth dilution,>1000 µg/mL
CC(=O)O[C@@H]1/C=C/[C@@](C)(O)C(=O)[C@@H](C)C/C=C/[C@H]2[C@@H]3O[C@]3(C)[C@@H](C)[C@H]3[C@H](Cc4ccccc4)NC(=O)[C@@]312,,,MIC,H37Ra,,>200 µg/mL
CC1OC(=O)c2cc(Br)ccc21,,,MIC,H2,,300 µg/mL
CCCc1ccc(C2=CC(c3ccc(F)cc3)=NC(NCC(=O)Oc3cc4oc(=O)cc(C)c4cc3[N+](=O)[O-])S2)cc1,,,MIC99,H37Rv,broth dilution,62.5 µg/mL
CCCCn1c(C)c2c(=O)n(C)n(Cc3ccc(Cl)cc3)c(=O)c2c1C,,,EC50,H37Rv,,<12.5 µg/mL
Cc1cc(=O)oc2cc(OC(=O)CNC3N=C(c4ccc(F)cc4)C=C(c4cccc(Oc5ccccc5)c4)S3)c([N+](=O)[O-])cc12,,,MIC98,H37Rv,broth dilution,>1000 µg/mL
CCCCCCCOCCCCOP(=O)(O)C[C@@H]1O[C@H](CO)[C@@H](O)[C@@H]1O,,,MIC,H37Rv,,>3.13 µg/mL
Oc1cc(C(O)CCc2ccccc2)ccc1Oc1ccccc1,,,MIC,H37Rv,resazurin,4 µg/mL
CCCCc1nc(Cl)c(/C=N/NC(N)=S)n1CCCN1CCN(c2ccc(Cl)cc2)CC1,,,MIC,H37Rv,agar,25 µg/mL
CCCCCCCCCCCCCCCCOc1nn(C)c(=O)c2c(C)n(CCCC)c(C)c12,,12.5 µg/mL,inhibition,H37Rv,,77%
CCCCc1nc(Cl)c(/C=N/NC(N)=S)n1CCCN1CCN(c2ccc([N+](=O)[O-])cc2)CC1,,,MIC,H37Rv,agar,50 µg/mL
CC/C(=N\N=C\c1c2c(O)c3c(O)c(C)c4c(c3c1O)C(=O)[C@@](C)(O/C=C/[C@H](OC)[C@@H](C)[C@@H](OC(C)=O)[C@H](C)[C@H](O)[C@H](C)[C@@H](O)[C@@H](C)/C=C/C=C(/C)C(=O)N2)O4)N(CC)CC,,,MIC,H37Rv,,0.016 µg/mL
CCNNC(=O)c1ccncc1,,,MIC,H37Rv,,40 µg/mL
NCCC(O)C(=O)N[C@H]1C[C@@H](N)[C@H](O[C@H]2O[C@H](CN)[C@@H](O)[C@H](O)[C@H]2N)[C@@H](O[C@@H]2O[C@H](CO)[C@H](O)[C@H]2O)[C@@H]1O,,,Geometric mean MIC,1 strain,,1.6 µg/mL
O=c1c2c(oc3cccc(O)c13)CCC2O,,,MIC,H37Rv,resazurin,100.9 µM
CN1N=C(c2ccncc2)OC1c1ccccc1F,,,MIC,16PI,,20 µg/mL
CCCCC(=O)NNC(=O)c1ccncc1,,,MIC,H37Rv,,400 µg/mL
CCCN(CCC)/C(C)=N/N=C/c1c2c(O)c3c(O)c(C)c4c(c3c1O)C(=O)[C@@](C)(O/C=C/[C@H](OC)[C@@H](C)[C@@H](OC(C)=O)[C@H](C)[C@H](O)[C@H](C)[C@@H](O)[C@@H](C)/C=C/C=C(/C)C(=O)N2)O4,,,MIC,H37Rv,,0.032 µg/mL
OC[C@H]1N[C@@H](CSc2ccccc2)[C@@H](O)[C@@H]1O,,,EC50,H37Ra,BACTEC,>12.5 µg/mL
Cn1c(=O)sn(-c2cccc3ccccc23)c1=O,,,MIC,H37Rv,broth dilution,12.5 µg/mL
CC1OC(=O)c2cccc(N)c21,,,MIC,H37Rv,,1000 µg/mL
CN[C@@H]1[C@H](O[C@H]2[C@H](O[C@H]3[C@H](O)[C@@H](O)[C@H](N=C(N)N)[C@@H](O)[C@@H]3N=C(N)N)O[C@@H](C)[C@]2(O)C=O)O[C@@H](CO)[C@H](O)[C@H]1O,,,MIC,666,,0.2 µg/mL
Cc1cc(=O)oc2cc(OC(=O)CNC3N=C(c4ccc(F)cc4)C=C(c4ccc(O)cc4)S3)c([N+](=O)[O-])cc12,,,MIC98,H37Rv,broth dilution,1000 µg/mL
FC(F)(F)c1cccc(-n2cc(Cn3c4ccccc4c4ccccc43)nn2)c1,,,MIC,H37Rv,agar,50 µg/mL
Oc1cc(Cl)ccc1Oc1ccc(Cl)cc1Cl,MDR,,MIC,Clinical isolate,resazurin,>12.5 µg/mL
CC(=O)N[C@@H]1[C@H](O[C@H]2[C@H](O[C@H]3[C@H](O)[C@@H](O)[C@H](N=C(N)N)[C@@H](O)[C@@H]3N=C(N)N)O[C@@H](C)[C@]2(O)C=O)O[C@@H](CO)[C@H](O)[C@H]1O,,,MIC,666,,1.56 µg/mL
CC(C)N=c1cc2n(-c3ccc(Cl)cc3)c3ccccc3nc-2cc1Nc1ccc(Cl)cc1,,,MIC,H37Rv,resazurin,0.03 µg/mL
Oc1cc(C(O)CCc2ccco2)ccc1Oc1ccccc1,,,MIC,H37Rv,resazurin,4 µg/mL
CC1OC(=O)c2ccc(N)cc21,,,MIC,H2,,300 µg/mL
NNC(=O)c1ccncc1,,,MIC,H37Rv,agar,0.1 µg/mL
CC1=C2Cc3cc(ccc3O)C(=O)O[C@H]3CC[C@@](C)(OC3(C)C)[C@H](Br)CC[C@]2(C)[C@@H](Br)CC1,,,MIC,,,22 µM
CNc1ccccc1C(=O)O[C@@H]1[C@@H](C)[C@]2(O)[C@@H]3C=C(C)C(=O)[C@@H]3CC(C)=C[C@H]2[C@@H]2C(C)(C)[C@]12OC(=O)O,,,MIC,H37Ra,,200 µg/mL
NNC(=O)C(=O)NN=C(C(Cl)(Cl)CO)C(Cl)(Cl)CO,,12.5 µg/mL,inhibition,H37Rv,BACTEC,36%
CC(C)c1ccc(-n2c(=O)sn(-c3ccc(SC(F)(F)F)cc3)c2=O)cc1,,,MIC,H37Rv,broth dilution,12.5 µg/mL
CCCCc1nc(Cl)c(/C=N/NC(N)=S)n1CCCN1CCN(c2ccccc2C)CC1,,,MIC,H37Rv,agar,3.13 µg/mL
NNC(=O)c1ccncc1,,,MIC,H37Rv,agar,0.66 µM
Fc1ccc(-n2cc(Cn3c4ccccc4c4ccccc43)nn2)cc1,,,MIC,H37Rv,agar,25 µg/mL
CCN(CC)/C(C)=N/N=C/c1c2c(O)c3c(O)c(C)c4c(c3c1O)C(=O)[C@@](C)(O/C=C/[C@H](OC)[C@@H](C)[C@@H](OC(C)=O)[C@H](C)[C@H](O)[C@H](C)[C@@H](O)[C@@H](C)/C=C/C=C(/C)C(=O)N2)O4,,,MIC,H37Rv,,0.016 µg/mL
CN1N=C(c2ccncc2)OC1c1ccc(Cl)cc1Cl,,,MIC,6 PI,,>20 µg/mL
Cc1ccc(CCC(O)c2ccc(Oc3ccccc3)c(O)c2)cc1,INH resistant,,MIC,Clinical isolate,resazurin,6.25 µg/mL
CCCCn1c(C)c2c(OCCO)nn(C)c(=O)c2c1C,,,EC50,H37Rv,,>12.5 µg/mL
COc1ccc(CCC(=O)c2ccc(Oc3ccccc3)c(O)c2)cc1,,,MIC,H37Rv,resazurin,12.5 µg/mL
OC[C@H]1N[C@@H](CSc2ccc3ccccc3c2)[C@@H](O)[C@@H]1O,,,EC50,H37Ra,BACTEC,>12.5 µg/mL
CO[C@H]1/C=C/O[C@@]2(C)Oc3c(C)c(O)c4c(O)c(c(/C=N/N=C(\C)N(C)C)c(O)c4c3C2=O)NC(=O)/C(C)=C\C=C\[C@H](C)[C@H](O)[C@@H](C)[C@@H](O)[C@@H](C)[C@H](OC(C)=O)[C@@H]1C,,,MIC,H37Rv,,0.032 µg/mL
O=c1sn(-c2ccccc2C(F)(F)F)c(=O)n1CC1CC1,,,MIC,H37Rv,broth dilution,25 µg/mL
COc1ccc(OC)c(C2OC(c3ccncc3)=NN2C)c1,,,MIC,6 PI,,>20 µg/mL